Test results reported in patent US20240109955A1 (published 2024).

B1: MX1026 (antibody)
chain: DTVMTQSPLSLPVTPGEPASISCRSSQSLLNSNGYNYLDWYVQKPGQSPQLLIYLGSNRASGVPDRFSGSGSGTDFTLKISRVEAEDVGVYYCMQPLQTPLFTFGPGTKVEIKGGGGSGGSGSGGGGSASGSGQVTLRESGPALVKPTQTLTLTCTFSGFSLSTRGVCVSWIRQPPGKALEWLAFIDWDDDKYYNTSLKTRLTISKDTSKNQVVLTMTNVHPVDTATYYCARISSHHGSSWCTTFDYWGQGALVTVSAASGGSGDKTHTCPPCPAPELLGGPSVFLFPPKPKDTLMISRTPEVTCVVVDVSHEDPEVKFNWYVDGVEVHNAKTKPREEQYNSYVVSVLTVLHQDWLNGKEYKCKVSNKALPAPIEKTISKAKGQPREPQVYTLPPSRDELTKNQVSLTCLVKGFYPSDIAVEWESNGQPENNYKTTPPVLDSDGSFFKKLTVDKSRWQQGNVFSCSVLHEALHSHYTQKSLSLSPG
B2: MX1086 (antibody)
chain 1: EIVMTQSPAILSVSPGERATLSCRASQSVAINLAWYQQKPGQAPRLLIYAASSRATGIPGRFSGSGSETNFTLTISSLQSGDFAVYYCQQYITWPPSYTFGQGTKLEIKGGSSGDTVMTQSPLSLPVTPGEPASISCRSSQSLLNSNGYNYLDWYVQKPGQSPQLLIYLGSNRASGVPDRFSGSGSGTDFTLKISRVEAEDVGVYYCMQPLQTPLFTFGPGTKVEIKGGGGSGGSGSGGGGSASGSGQVTLRESGPALVKPTQTLTLTCTFSGFSLSTRGVCVSWIRQPPGKALEWLAFIDWDDDKYYNTSLKTRLTISKDTSKNQVVLTMTNVHPVDTATYYCARISSHHGSSWCTTFDYWGQGALVTVSAGGSSGEVQLVESGGALIQPGGSLRLSCAASGIIVSANYMSWVRQAPGKGLEWVSVIYSGGSTFYADSVKGRFTISRDNSKNTLYLEMNSLRAEDTAVYYCARDAPILGVSDWGQGTLVTVSSASGGSGDKTHTCPPCPAPELLGGPSVFLFPPKPKDTLMISRTPEVTCVVVDVSHEDPEVKFNWYVDGVEVHNAKTKPREEQYNSYVVSVLTVLHQDWLNGKEYKCKVSNKALPAPIEKTISKAKGQPREPQVCTLPPSRDELTKNQVSLSCAVKGFYPSDIAVEWESNGQPENNYKTTPPVLDSDGSFFLVSKLTVDKSRWQQGNVFSCSVLHEALHSHYTQKSLSLSPG
chain 2: QTVVTQEPSFSVSPGGTVTLTCGLSSGSVSTAYFPSWYQQTPGQAPRTLIYGTNTRSSGVPDRFSGSILGNKAALTITGAQADDESDYYCVLYMGRGIVVFGGGTKLTVLGGSSGEIVLTQSPGTLSLSPGETATLSCRASQSFSSDLAWYQQKPGQAPRLLIYGASSRATGIPDRFSGSGSGTDFTLTISRLEPADFAVYYCQQYGSSPPVTFGGGTKVEIKGGGGSGGSGSGGGGSASGSGEVQLVESGGGLIQPGGSLRLSCAASGVIVSYNYMNWVRQAPGKGLEWVSVIYSGGSTFYADSVRGRFTISRDNSKNTLYLQMNSLRAEDTAVYYCARDLGPAGAFDIWGLGTMVTVSSGGSSGQVQLVESGGGVVQPGRSLRLSCAASGFTLSSYGMHWVRQAPGKGLEWVAVISYDGSNKYYVDSVKGRFTISRDNSKNTLYLQMNSLRAEDTAVYYCRWAYWELLPDYYYGMDVWGQGTTVTVSSASGGSGDKTHTCPPCPAPELLGGPSVFLFPPKPKDTLMISRTPEVTCVVVDVSHEDPEVKFNWYVDGVEVHNAKTKPREEQYNSYVVSVLTVLHQDWLNGKEYKCKVSNKALPAPIEKTISKAKGQPREPQVYTLPPCRDELTKNQVSLWCLVKGFYPSDIAVEWESNGQPENNYKTTPPVLDSDGSFFKKLTVDKSRWQQGNVFSCSVLHEALHSHYTQKSLSLSPG
B3: MX1019 (antibody)
chain: EIVMTQSPAILSVSPGERATLSCRASQSVAINLAWYQQKPGQAPRLLIYAASSRATGIPGRFSGSGSETNFTLTISSLQSGDFAVYYCQQYITWPPSYTFGQGTKLEIKGGGGSGGSGSGGGGSASGSGEVQLVESGGALIQPGGSLRLSCAASGIIVSANYMSWVRQAPGKGLEWVSVIYSGGSTFYADSVKGRFTISRDNSKNTLYLEMNSLRAEDTAVYYCARDAPILGVSDWGQGTLVTVSSASGGSGDKTHTCPPCPAPELLGGPSVFLFPPKPKDTLMISRTPEVTCVVVDVSHEDPEVKFNWYVDGVEVHNAKTKPREEQYNSYVVSVLTVLHQDWLNGKEYKCKVSNKALPAPIEKTISKAKGQPREPQVYTLPPSRDELTKNQVSLTCLVKGFYPSDIAVEWESNGQPENNYKTTPPVLDSDGSFFKKLTVDKSRWQQGNVFSCSVLHEALHSHYTQKSLSLSPG
B4: MX1020 (antibody)
chain: DTVMTQSPLSLPVTPGEPASISCRSSQSLLNSNGYNYLDWYVQKPGQSPQLLIYLGSNRASGVPDRFSGSGSGTDFTLKISRVEAEDVGVYYCMQPLQTPLFTFGPGTKVEIKGGSSGDTVMTQSPLSLPVTPGEPASISCRSSQSLLNSNGYNYLDWYVQKPGQSPQLLIYLGSNRASGVPDRFSGSGSGTDFTLKISRVEAEDVGVYYCMQPLQTPLFTFGPGTKVEIKGGGGSGGSGSGGGGSASGSGQVTLRESGPALVKPTQTLTLTCTFSGFSLSTRGVCVSWIRQPPGKALEWLAFIDWDDDKYYNTSLKTRLTISKDTSKNQVVLTMTNVHPVDTATYYCARISSHHGSSWCTTFDYWGQGALVTVSAGGSSGQVTLRESGPALVKPTQTLTLTCTFSGFSLSTRGVCVSWIRQPPGKALEWLAFIDWDDDKYYNTSLKTRLTISKDTSKNQVVLTMTNVHPVDTATYYCARISSHHGSSWCTTFDYWGQGALVTVSAASGGSGDKTHTCPPCPAPELLGGPSVFLFPPKPKDTLMISRTPEVTCVVVDVSHEDPEVKFNWYVDGVEVHNAKTKPREEQYNSYVVSVLTVLHQDWLNGKEYKCKVSNKALPAPIEKTISKAKGQPREPQVYTLPPSRDELTKNQVSLTCLVKGFYPSDIAVEWESNGQPENNYKTTPPVLDSDGSFFKKLTVDKSRWQQGNVFSCSVLHEALHSHYTQKSLSLSPG
B5: A23-58.1HC/58.1LC_93VGLTG (antibody, V domains shown)
VH: QMQLVQSGPEVKKPGTSVKVSCKASGFTFTSSAVQWVRQRQRLEWIGWIVVGSGNTNYAQKFQERVTITRDMSTSTAYMELSSLRSEDTAVYYCAAPNCSNVVCYDGFDIWGQGTMVTVSS
VL: EIVLTQSPGTLSLSPGERATLSCRASQSVSSSYLAWYQQKPGQAPRLLIYSASSRATGIPDRFSGSGSGTDFTLTISRLEPEDFAVYFCQQYVGLTGWTFGQGTKVEIK
B6: MX1025 (antibody)
chain: EIVLTQSPGTLSLSPGETATLSCRASQSFSSDLAWYQQKPGQAPRLLIYGASSRATGIPDRFSGSGSGTDFTLTISRLEPADFAVYYCQQYGSSPPVTFGGGTKVEIKGGGGSGGSGSGGGGSASGSGEVQLVESGGGLIQPGGSLRLSCAASGVIVSYNYMNWVRQAPGKGLEWVSVIYSGGSTFYADSVRGRFTISRDNSKNTLYLQMNSLRAEDTAVYYCARDLGPAGAFDIWGLGTMVTVSSASGGSGDKTHTCPPCPAPELLGGPSVFLFPPKPKDTLMISRTPEVTCVVVDVSHEDPEVKFNWYVDGVEVHNAKTKPREEQYNSYVVSVLTVLHQDWLNGKEYKCKVSNKALPAPIEKTISKAKGQPREPQVYTLPPSRDELTKNQVSLTCLVKGFYPSDIAVEWESNGQPENNYKTTPPVLDSDGSFFKKLTVDKSRWQQGNVFSCSVLHEALHSHYTQKSLSLSPG
B7: MX1029 (antibody)
chain: EIVLTQSPGTLSLSPGETATLSCRASQSFSSDLAWYQQKPGQAPRLLIYGASSRATGIPDRFSGSGSGTDFTLTISRLEPADFAVYYCQQYGSSPPVTFGGGTKVEIKGGSSGEIVLTQSPGTLSLSPGETATLSCRASQSFSSDLAWYQQKPGQAPRLLIYGASSRATGIPDRFSGSGSGTDFTLTISRLEPADFAVYYCQQYGSSPPVTFGGGTKVEIKGGGGSGGSGSGGGGSASGSGEVQLVESGGGLIQPGGSLRLSCAASGVIVSYNYMNWVRQAPGKGLEWVSVIYSGGSTFYADSVRGRFTISRDNSKNTLYLQMNSLRAEDTAVYYCARDLGPAGAFDIWGLGTMVTVSSGGSSGEVQLVESGGGLIQPGGSLRLSCAASGVIVSYNYMNWVRQAPGKGLEWVSVIYSGGSTFYADSVRGRFTISRDNSKNTLYLQMNSLRAEDTAVYYCARDLGPAGAFDIWGLGTMVTVSSASGGSGDKTHTCPPCPAPELLGGPSVFLFPPKPKDTLMISRTPEVTCVVVDVSHEDPEVKFNWYVDGVEVHNAKTKPREEQYNSYVVSVLTVLHQDWLNGKEYKCKVSNKALPAPIEKTISKAKGQPREPQVYTLPPSRDELTKNQVSLTCLVKGFYPSDIAVEWESNGQPENNYKTTPPVLDSDGSFFKKLTVDKSRWQQGNVFSCSVLHEALHSHYTQKSLSLSPG

Key:
Experiment in all cases: cell-based or functional assay
[1] = target: SARS-CoV-2 Omicron BQ.1.1 spike protein (SARS-CoV-2, UniProt P0DTC2 14-1273)
[2] = target: SARS-CoV-2 Omicron XBB spike protein (SARS-CoV-2, UniProt P0DTC2 14-1273)
[3] = target: SARS-CoV-2 spike protein, Omicron BF.7 (SARS-CoV-2)
[4] = target: SARS-CoV-2 Omicron BA.4/5 spike protein (SARS-CoV-2, UniProt P0DTC2 14-1273)
[5] = target: SARS-CoV-2 spike protein, Omicron sublineage BA.2.12.1 (SARS-CoV-2, UniProt P0DTC2 14-1273)

Binder	IC50, pseudovirus neutralization [1] [µg/mL]	IC80, pseudovirus neutralization [1] [µg/mL]	IC50, pseudovirus neutralization [2] [µg/mL]	further results
B1	0.963	3.94	1.25	IC80, pseudovirus neutralization [2]: 4.54 µg/mL
B2	–	–	–	IC50, pseudovirus neutralization [3]: 0.00849 µg/mL; IC80, pseudovirus neutralization [3]: 0.0223 µg/mL
B3	0.0142	0.0245	0.0131	IC80, pseudovirus neutralization [2]: 0.0206 µg/mL
B4	0.00219	0.00361	–	IC50, pseudovirus neutralization [4]: 0.0036 µg/mL; IC80, pseudovirus neutralization [4]: 0.00794 µg/mL
B5	–	–	–	IC50, pseudovirus neutralization [5]: 3.4 nM; IC80, pseudovirus neutralization [5]: 11.5 nM
B6	0.0303	0.035	0.0328	–
B7	0.00379	0.00678	–	IC50, pseudovirus neutralization [4]: 0.00862 µg/mL; IC80, pseudovirus neutralization [4]: 0.0341 µg/mL
